Measurements: US9988395B2, “Antiparasitic compositions and methods utilizing substituted 5,5,7,7-tetramethyl-4,5,6,7-tetrahydrothieno[2,3-C]pyridine derivatives” (THE BOARD OF REGENTS OF THE UNIVERSITY OF TEXAS SYSTEM, priority 2015, dated 2018)

Tested on: L. major Luciferase promastigotes
Test: Antiparasitic activity in L. major Luciferase promastigotes
Type: cell-based, Leishmania major
Settings: TI versus macrophage LD50
Text: IC50 is median inhibitory concentration. TI is therapeutic index.

| SMILES | L. major Promastigotes [TI] (therapeutic index) |
| --- | --- |
| CCOC(=O)c1c(NC(=O)c2cccc(C(F)(F)F)c2F)sc2c1CC(C)(C)NC2(C)C [GP1-04, Ethyl 2-(2-fluoro-3-(trifluoromethyl)benzamido)-5,5,7,7-tetramethyl-4,5,6,7-tetrahydrothieno[2,3-c]pyridine-3-carboxylate] | 100.59 |
| CCOC(=O)c1c(NC(=O)c2ccc(F)c(C(F)(F)F)c2)sc2c1CC(C)(C)NC2(C)C [GP1-05, Ethyl 2-(4-fluoro-3-(trifluoromethyl)benzamido)-5,5,7,7-tetramethyl-4,5,6,7-tetrahydrothieno[2,3-c]pyridine-3-carboxylate] | 28.20 |
| CCOC(=O)c1c(NC(=O)c2ccc([N+](=O)[O-])s2)sc2c1CC(C)(C)NC2(C)C [RS2, ethyl 5,5,7,7-tetramethyl-2-(5-nitrothiophene-2-carboxamido)-4,5,6,7-tetrahydrothieno[2,3-c]pyridine-3-carboxylate] | 3.2 |
| CCOC(=O)c1c(NC(=O)c2cccc(C(F)(F)F)c2)sc2c1CC(C)(C)NC2(C)C [RS3, Ethyl 5,5,7,7-tetramethyl-2-(3-(trifluoromethyl)benzamido)-4,5,6,7-tetrahydro-thieno[2,3-c]pyridine-3-carboxylate] | 4.20 |
| CCOC(=O)c1c(NC(=O)c2c(F)c(F)c(F)c(F)c2F)sc2c1CC(C)(C)NC2(C)C [RS4, Ethyl 5,5,7,7-tetramethyl-2-(perfluorobenzamido)-4,5,6,7-tetrahydrothieno[2,3c]pyridine-3-carboxylate] | 22.35 |
